Data source: PubChem BioAssay AID504761 (Drosophila RNAi Screening Center, 2011)

Screen: 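Fly genes whose silencing reduces dengue virus type 2 infection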 (primary screen)
Cell system: D.Mel-2 cells from Drosophila
Knock-down reagent: long dsRNA against Drosophila genes
Treatment: infection with dengue virus type 2; dose and infection time not stated
Read-out: 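Per well on two replicate plates, imaging gave the percent of cells positive for viral envelope protein, ranked by infection, and a nuclear count of cells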
Scale: infection score: higher = more virus-infected cells; cell count: higher = more cells in the well
Active means: 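Low infection ranks in the two replicates (chance level up to 0.065) followed by a retest with a 1.5-fold or larger significant decrease, p below 0.05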
Meaning of the calls: active = confirmed: knock-down lowers infection; inactive = not picked or not confirmed
The screen tested about 22,000 reagents; shown is an unselected part of those that have a named target and a result. Of all reagents, 116 (0.52%) are marked active. 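Calls depend on retest data that are not deposited; infection was ranked per plate without normalising between plates; the unit of the infection score is not given.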 The raw values are shown without normalisation. The numbers tell different reagents against one gene apart. Not given: the amount of reagent, the time to read-out.

target | reagent | infection score, replicate 1 | infection score, replicate 2 | cell count, replicate 1 | cell count, replicate 2 | outcome
CG11149 | 1 | 3.67 | 0.62 | 6509 | 6625 | inactive
CG31845 (retired record) | 1 | 0.98 | 3.06 | 6247 | 6528 | inactive
UQCR-11L | 1 | 14.2 | 7.48 | 6050 | 6055 | inactive
l(3)76BDm | 1 | 4.08 | 10.4 | 7079 | 5522 | inactive
CG18128 | 1 | 8.28 | 8.6 | 6458 | 7161 | inactive
Mgat2 | 1 | 5.23 | 4.06 | 6367 | 6374 | inactive
Mgat2 | 2 | 12.2 | 18.8 | 5976 | 5007 | inactive
Rgk3 | 1 | 11.2 | 7.96 | 6532 | 6730 | inactive
Rgk3 | 2 | 3.7 | 12.6 | 6003 | 6546 | inactive
Rgk3 | 3 | 8.1 | 12 | 5914 | 5507 | inactive
Rgk3 | 4 | 16 | 12.9 | 5833 | 5396 | inactive
CG11698 | 1 | 2.15 | 4.91 | 6612 | 6314 | inactive
CG6230 | 1 | 10.1 | 1.14 | 6240 | 6424 | inactive
CG5404 | 1 | 2.5 | 1.86 | 6287 | 6452 | inactive
CG5404 | 2 | 24.3 | 0.92 | 4180 | 541 | inactive
CG15649 | 1 | 8.97 | 6.86 | 6463 | 2275 | inactive
CG15649 | 2 | 26.9 | 27.2 | 4827 | 4522 | inactive
LysD | 1 | 13.1 | 9.56 | 5201 | 5710 | inactive
CG7208 | 1 | 2.42 | 2.37 | 7096 | 6167 | inactive
CG7208 | 2 | 13.2 | 5.51 | 6274 | 5864 | inactive
arg | 1 | 24.1 | 14.8 | 6406 | 6847 | inactive
arg | 2 | – | 16.2 | 331 | 2104 | inactive
Hesr | 1 | 3.95 | 9.72 | 6632 | 6798 | inactive
CG32206 | 1 | 5.11 | 8.89 | 6148 | 5940 | inactive
CG32206 | 2 | 5.83 | 7.33 | 6142 | 6030 | inactive
CG32206 | 3 | 1.82 | 1.38 | 6657 | 6162 | inactive
CG32206 | 4 | 2.66 | 3.87 | 5934 | 5990 | inactive
blp | 1 | 4.31 | 23.6 | 5223 | 4089 | inactive
blp | 2 | 12.5 | 0.44 | 1473 | 457 | inactive
CG10336 | 1 | 14.1 | 7.88 | 5963 | 5999 | inactive
tRNA:Leu-CAA-2-3 | 1 | 4.55 | 6.09 | 5720 | 6354 | active
Arglu1 | 1 | 2.26 | 3.07 | 7114 | 6837 | inactive
Arglu1 | 2 | 14.5 | 20.7 | 5752 | 5359 | inactive
CG12129 | 1 | 24.8 | 20.6 | 5782 | 5941 | inactive
Hsl | 1 | – | 10.9 | 382 | 4983 | inactive
CG6901 | 1 | 7.72 | 15.1 | 6399 | 5579 | inactive
CG6901 | 2 | 2.04 | 10.3 | 6072 | 5987 | inactive
CR31958 | 1 | 2.37 | 1.15 | 6578 | 7124 | inactive
CR31958 | 2 | 6.55 | 2.86 | 6578 | 6829 | inactive
CR31958 | 3 | 6.1 | 8.53 | 6410 | 6363 | inactive
